A mixed list of measured activities; the numbers were collected in NIAID ChemDB.

All rows: tests in culture; agent: Mycobacterium tuberculosis

Inhibition is in % at the dose shown (toxicity tests: loss of growth or viability).

structure | dose | endpoint | strain | read by | value
Cc1nn(-c2ccccc2)c(Cl)c1-c1nc(N)nc2c1c(C)nn2-c1ccccc1 |  | MIC | H37Rv | resazurin | 3.25 µg/mL
Cc1ccc(C)c(NCC(=O)NN)c1 |  | MIC | H37Rv | BACTEC | ≥12.5 µg/mL
CCCn1c(O)c(N=NC(=O)c2ccncc2)c2ccccc21 |  | MIC | Human sensitive isolate |  | 3.1 µg/mL
CC(C)[C@H]1CO[C@]23CC[C@H](N(Cc4ccc(C(F)(F)F)cc4)C4COC4)C[C@H]2CCC(=O)N13 |  | MIC |  | resazurin | <0.5 µM
CCOP(=O)(O)C(Nc1ccc(N=Nc2ccccc2)cc1)c1ccc(C(Nc2ccc(N=Nc3ccccc3)cc2)P(=O)(O)OCC)cc1 | 6.25 µg/mL | inhibition | H37Rv | resazurin | -13%
Cc1c(I)c(=O)oc2c(C)c3c(cc12)CC(CI)O3 | 12.5 µg/mL | inhibition | H37Rv | BACTEC | 17%
CCOC(=O)c1cccnc1-c1ncccc1C(=O)OCC |  | MIC | H37Rv | resazurin | >6.25 µg/mL
CC(C)[C@H]1CO[C@]23CC[C@H](N(Cc4ccc(C(F)(F)F)cc4)CC4CCCCC4)C[C@H]2CCC(=O)N13 |  | MIC |  | resazurin | <0.5 µM
NNC(=O)CCc1ccncc1 | 12.5 µg/mL | inhibition | H37Rv | BACTEC | 3%
CC(C)[C@H]1CO[C@]23CC[C@H](N(Cc4ccc(C(F)(F)F)cc4)C[C@H]4CCCN4)C[C@H]2CCC(=O)N13 |  | MIC |  | resazurin | 0.5–5 µM
CN1CCC23c4c5ccc(O)c4OC2/C(=N/N=C2\CCC4(O)C6Cc7ccc(O)c8c7C4(CCN6C)C2O8)CCC3(O)C1C5 | 12.5 µg/mL | inhibition | H37Rv | BACTEC | 71%
CC(=O)/C(N=Nc1ccc(C(=O)N/N=C/c2ccccc2F)cc1)=C(\C)O |  | EC50 | H37Rv |  | >12.5 µg/mL
CCN(CC)CC(O)CNc1ccc(NCC2CO2)c2c1C(=O)c1ccccc1C2=O |  | MIC | H37Rv | resazurin | 1.56 µg/mL
O=C1NC(Nc2ccc(Cl)cc2)=N/C1=C\c1ccccc1Cl |  | EC50 | H37Rv |  | <12.5 µg/mL
CC(=O)NC[C@H]1CN(c2ccc(N3CCOCC3)c(F)c2)C(=O)O1 |  | MIC90 | 42 isolates |  | 0.5 µg/mL
[I][Hg][CH2]C1Cc2ccccc2O1 | 12.5 µg/mL | inhibition | H37Rv | BACTEC | 99%
CC1N=C(N)NC(c2c(Cl)cccc2Cl)=C1C(=O)Nc1ccc(S(=O)(=O)c2ccc(NC(=O)C3=C(c4c(Cl)cccc4Cl)NC(N)=NC3C)cc2)cc1 |  | MIC | H37Rv |  | 0.28 µM
Cc1cccc(C(=O)Nc2nnc(COc3ccc4c(C)cc(=O)oc4c3)o2)c1 |  | EC50 | H37Rv | resazurin | 65.2 µg/mL
O=C1NC(NNC(=O)c2ccncc2)=N/C1=C\c1ccccc1Cl |  | MBC | Rifampicin-resistant |  | 1.56 µg/mL
CCn1cc(C(=O)O)c(=O)c2cc(F)c(N3CCNCC3)nc21 |  | MIC | 10 strains |  | 2 µg/mL
C=C1CC[C@H]2[C@@H]3C(C(C)C)=CC[C@]3(C)C(=O)C[C@]2(C)C[C@@H]1O | 6.25 µg/mL | inhibition | H37Rv |  | 0%
Cc1ccc2nc(Cl)c(/C=C3/C=C(c4ccccc4)OC3=O)cc2c1 |  | EC50 | H37Rv | resazurin | 49.85 µg/mL
CC1N=C(N)NC(c2ccco2)=C1C(=O)Nc1ccc(S(=O)(=O)c2ccc(NC(=O)C3=C(c4ccco4)NC(N)=NC3C)cc2)cc1 |  | MIC | H37Rv |  | 0.59 µM
Cc1ccc(C2=C/C(=C/c3cc4cc(C)ccc4nc3Cl)C(=O)O2)cc1 |  | EC50 | H37Rv | resazurin | >100 µg/mL
COc1ccc(CCn2c(C)nc3ccc(C)cc3c2=O)cc1OC |  | MIC bound | H37Rv | BACTEC | >12.5 µg/mL
CC1N=C(N)NC(c2ccc(N(C)C)cc2)=C1C(=O)Nc1ccc(S(=O)(=O)c2ccc(NC(=O)C3=C(c4ccc(N(C)C)cc4)NC(N)=NC3C)cc2)cc1 |  | MIC | H37Rv |  | 0.94 µM
CN[C@H](CC(C)C)C(=O)N[C@H]1C(=O)N[C@@H](CC(N)=O)C(=O)N[C@H]2C(=O)N[C@H]3C(=O)N[C@H](C(=O)N[C@H](C(=O)O)c4cc(O)cc(O)c4-c4cc3ccc4O)[C@H](O)c3ccc(c(Cl)c3)Oc3cc2cc(c3O[C@@H]2O[C@H](CO)[C@@H](O)[C@H](O)[C@H]2O[C@H]2C[C@](C)(N)[C@H](O)[C@H](C)O2)Oc2ccc(cc2Cl)[C@H]1O |  | MIC | H37Rv | broth dilution | 0.032–0.064 µg/mL
CC1COc2c(N3CCN(C)CC3)c(F)cc3c(=O)c(C(=O)O)cn1c23 |  | MIC | CIPT 140010072 |  | <1 µg/mL
Cc1c(Br)c(=O)oc2c(C)c3c(cc12)CC(CI)O3 | 12.5 µg/mL | inhibition | H37Rv | BACTEC | 25%
Nc1ccc(NC(=S)C(=O)Nc2ccccc2)cc1 |  | MIC | H37Rv |  | 222 µM
O=C(O)c1cccnc1-c1ncccc1C(=O)O |  | MIC | H37Rv | resazurin | >6.25 µg/mL
COc1ccc2cc1Oc1cc(ccc1OCC=C(C)C)CCC(=O)CCCC2 |  | MIC | H37Rv | broth dilution | >200 µg/mL
CCO/C=N/c1oc(-c2ccccc2)nc1C#N |  | MIC bound | H37Rv | BACTEC | >12.5 µg/mL
CC(C)(C)c1cc(C(C)(C)C)c2nc(C(=O)NC(Cc3ccc(O)cc3)C(=O)O)oc2c1 |  | MIC | My 331/88 |  | 1000 µM
COc1ccc2cc1Oc1cc(ccc1O)CCC(=O)CCCC2 |  | MIC | H37Rv | broth dilution | 200 µg/mL
COc1cccc2c1C(=O)c1c(O)c3c(c(O)c1C2=O)C[C@](O)(/C(C)=N/NS(C)(=O)=O)C[C@H]3OC1CC(N)C(O)C(C)O1.Cl |  | MIC bound | H37Rv | BACTEC | >12.5 µg/mL
CC(=O)NC[C@H]1CN(c2ccc(-c3ccc(CNCCCF)cc3)c(F)c2)C(=O)O1 |  | EC90 | H37Rv | resazurin | 0.06 µg/mL
CCCCCCNC1CCCCc2ccc(OC)c(c2)Oc2cc(ccc2OC)CC1 |  | MIC | H37Rv | broth dilution | 25 µg/mL
C=C[C@H]1[C@H](OC2OC(CO)C(O)C(O)C2O)OC=C(C(=O)OC)[C@H]1C[C@H]1CC(=O)C[C@H](CCc2ccc(O)cc2)O1 | 12.5 µg/mL | inhibition | H37Rv | BACTEC | 26%
Nc1ccc(C(=O)N/N=C/c2ccccc2)cc1 |  | EC50 | H37Rv |  | >12.5 µg/mL
COc1ccc2cc1Oc1cc(ccc1OC)CCC(NCCc1ccccc1)CCCC2 |  | MIC | H37Rv | broth dilution | 25 µg/mL
CC(C)[C@H]1CO[C@]23CC[C@H](N(Cc4ccc(C(F)(F)F)cc4)CC4CNC4)C[C@H]2CCC(=O)N13.O=CO |  | MIC |  | resazurin | 0.5–5 µM
COc1cccc(C(=O)Nc2nnc(COc3ccc4c(C)cc(=O)oc4c3)o2)c1 |  | EC50 | H37Rv | resazurin | >100 µg/mL
CCNCC1CCN(c2c(F)cc3c(=O)c(C(=O)O)cn(CC)c3c2F)C1 |  | MIC | 10 strains |  | 1 µg/mL
O=C(N=Nc1c(O)[nH]c2ccccc12)c1ccncc1 |  | MIC | Human resistant isolate |  | 2.7 µg/mL
CCc1ccc(C2=C/C(=C/c3cc4cc(Cl)ccc4nc3Cl)C(=O)O2)cc1 |  | EC50 | H37Rv | resazurin | >100 µg/mL
CC1=NN(c2ccccc2)C(=O)C1N=Nc1ccc(S(=O)(=O)Nc2nccs2)cc1 |  | MIC bound | H37Rv | BACTEC | >12.8 µg/mL
COc1ccc(C2=C(C(=O)Nc3ccc(S(=O)(=O)c4ccc(NC(=O)C5=C(c6ccc(OC)c(O)c6)NC(N)=NC5C)cc4)cc3)C(C)N=C(N)N2)cc1O |  | MIC | INH resistant |  | 7.74 µM
Nc1ccccc1NC(=S)C(=O)Nc1ccccc1 |  | MIC | H37Rv |  | 37 µM
Cc1cc(O)c2c(c1)C(=O)C=CC2=O |  | MIC | H37Rv |  | 0.5 µg/mL
CC(C)[C@H]1CO[C@]23CC[C@H](N(Cc4ccc(C(F)(F)F)cc4)CC4CCCN(C(=O)OC(C)(C)C)C4)C[C@H]2CCC(=O)N13 |  | MIC |  | resazurin | <0.5 µM
COC(=O)c1csc(-c2ccc(CO)o2)n1 | 12.5 µg/mL | inhibition | H37Rv | BACTEC | 13%
COc1ccc(C2=C(C(=O)Nc3ccc(S(=O)(=O)c4ccc(NC(=O)C5=C(c6ccc(OC)c(OC)c6)NC(N)=NC5C)cc4)cc3)C(C)N=C(N)N2)cc1OC |  | MIC | H37Rv |  | 1.48 µM
COc1ccc2cc1Oc1cc(ccc1OC)CCC(NCCN1CCOCC1)CCCC2 |  | MIC | H37Rv | broth dilution | 200 µg/mL
COC(=O)c1cccnc1-c1ncccc1C(=O)OC |  | MIC | H37Rv | resazurin | >6.25 µg/mL
COc1ccc2cc1Oc1cc(ccc1OC)CC/C(=N\OCc1ccccc1)CCCC2 |  | MIC | H37Rv | broth dilution | >200 µg/mL
O=C(Nc1cccc2ccccc12)C(=S)Nc1ccccc1O |  | MIC | H37Rv |  | 37 µM
O=C(N/N=C1\C(=O)N(c2nccs2)C(=O)C(=O)C1c1nc2ccccc2s1)c1ccccc1O |  | MIC bound | H37Rv | BACTEC | >12.5 µg/mL
O=C(N/N=C/c1cccs1)c1ccc(F)cc1 | 6.25 µg/mL | inhibition | H37Rv |  | 18%
CC(C)(C)c1cc(C(C)(C)C)c2nc(C(=O)NCC(=O)O)oc2c1 |  | MIC | My 331/88 |  | 500 µM
Cc1cnc(C#N)c(-n2ccnc2)n1 |  | MIC | H37Rv | BACTEC | ≥12.5 µg/mL
O=C(N/N=C/c1ccc(Br)s1)c1ccc(F)cc1 |  | MIC | H37Rv |  | <6.25 µg/mL
COc1ccc(-c2coc3c4c(c(CC=C(C)C)c(O)c3c2=O)OC(C)(C)C=C4)cc1OC |  | MIC | H37Rv | BACTEC | ≥12.5 µg/mL
CC1N=C(N)NC(c2ccc([N+](=O)[O-])cc2)=C1C(=O)Nc1ccc(S(=O)(=O)c2ccc(NC(=O)C3=C(c4ccc([N+](=O)[O-])cc4)NC(N)=NC3C)cc2)cc1 |  | MIC | H37Rv |  | 0.46 µM
N#CCCN(c1ccc(/C=C2\N=C(c3ccc(Cl)cc3)OC2=O)cc1)S(=O)(=O)c1ccccc1 | 12.5 µg/mL | inhibition | H37Rv | BACTEC | -19%
CCn1cc(C(=O)O)c(=O)c2cc(F)c(N3CCNCC3)nc21 |  | MIC | H37Rv |  | 5 µg/mL
Nc1ccc(C(=O)N/N=C/c2ccc(F)cc2)cc1 |  | MIC | H37Rv |  | >12.5 µg/mL
O=C1NC(Nc2ccc(Cl)cc2)=N/C1=C\c1ccc(Cl)cc1Cl |  | MIC | H37Rv |  | >12.5 µg/mL
O=P(O)(O)CN1CCN(CP(=O)(O)O)CCN(CP(=O)(O)O)CCN(CP(=O)(O)O)CC1 |  | MIC bound | H37Rv | resazurin | >6.25 µg/mL
CN1CCN(c2cc3c(cc2F)c(=O)c(C(=O)O)cn3-c2ccc(F)cc2)CC1 |  | MIC | 10 strains |  | 1 µg/mL
O=C(N/N=C/c1ccc([N+](=O)[O-])o1)c1ccc(F)cc1 |  | EC50 | H37Rv |  | <6.25 µg/mL
COc1ccc2[nH]c3c(C)c4ccncc4c(C)c3c2c1 |  | MIC | ETA-R |  | 0.4 µg/mL
COCOc1ccc(/C=C/C(=O)CCCCc2ccc(OC)c(O)c2)cc1Br |  | MIC | H37Rv | broth dilution | >200 µg/mL
COc1ccc(N=C2C(=S)N(c3ccc(OC)cc3)/C(=N\S(=O)(=O)c3ccccc3)N2c2ccccc2)cc1 | 12.5 µg/mL | inhibition | H37Rv | BACTEC | 0%
O=C(N/N=C/c1cccc(Cl)c1)c1ccc(F)cc1 |  | MIC | H37Rv |  | >6.25 µg/mL
CC(C)[C@H]1CO[C@]23CC[C@H](N(Cc4ccc(C(F)(F)F)cc4)C4CN(C=O)C4)C[C@H]2CCC(=O)N13 |  | MIC |  | resazurin | 0.5–5 µM
Nc1nc(N)nc(-c2ccc([N+](=O)[O-])o2)n1 |  | MIC | RMP-R |  | 6.3 µg/mL
Cc1ccc(NC(=O)C(=S)Nc2ccccc2O)cc1 |  | MIC | H37Rv |  | 24.7 µM
O=C(Nc1ccccc1)c1cc2ccccc2s1 | 6.25 µg/mL | inhibition | H37Rv | BACTEC | 3%
CC(C)=CCOc1c2ccoc2cc2oc(=O)ccc12 |  | MIC100 | H37Rv | resazurin | 100 µg/mL

5 of the rows above, restated:

{"structure": "O=C(Nc1cccc2ccccc12)C(=S)Nc1ccccc1O", "endpoint": "MIC", "strain": "H37Rv", "value": "37 µM"}
{"structure": "CCNCC1CCN(c2c(F)cc3c(=O)c(C(=O)O)cn(CC)c3c2F)C1", "endpoint": "MIC", "strain": "10 strains", "value": "1 µg/mL"}
{"structure": "COC(=O)c1cccnc1-c1ncccc1C(=O)OC", "endpoint": "MIC", "strain": "H37Rv", "read by": "resazurin", "value": ">6.25 µg/mL"}
{"structure": "O=C(Nc1ccccc1)c1cc2ccccc2s1", "dose": "6.25 µg/mL", "endpoint": "inhibition", "strain": "H37Rv", "read by": "BACTEC", "value": "3%"}
{"structure": "Cc1cccc(C(=O)Nc2nnc(COc3ccc4c(C)cc(=O)oc4c3)o2)c1", "endpoint": "EC50", "strain": "H37Rv", "read by": "resazurin", "value": "65.2 µg/mL"}

A number after MIC or MFC names an inhibition level or a share of isolates. Rows are shuffled and stem from different studies. Blank or dashed fields: not listed here. a–b is a range or a potency band. ECn: concentration that inhibits the pathogen or its effect by n%. MIC bound: limit read from a one-dose screen.